Measurements: patent US20120329731A1 (priority 2006, published 2012)
Like-named read-outs stand apart in the source and are kept apart here.

System: cyanide poisoning
Settings: for Protective Indices compared with the combination of nitrite and thiosulfate: i.p., 5 min pre- and post-cyanide, compounds 0.29 mmol/kg vs N/T 1.45/6.32 mmol/kg; for antidotal activity when administered by the oral route: oral gavage, 5 minutes pre- and post-CN, mouse
[1] = i.p. 5 min post-CN (4.8 mg/kg), prodrugs 0.29 mmol/kg, N/T 1.45/6.32 mmol/kg, H 0.217 mmol/kg
[2] = i.p. 5 min pre-CN (4.8 mg/kg i.p.), prodrugs 0.29 mmol/kg, N/T 1.45/6.32 mmol/kg, H 0.217 mmol/kg
[3] = i.p. 5 min pre-CN (4.8 mg/kg), prodrugs 0.29 mmol/kg, N/T 1.45/6.32 mmol/kg, H 0.217 mmol/kg
[4] = i.p. 30 min pre-CN (4.8 mg/kg), prodrugs 1, 3, 4 at 0.58 mmol/kg, PD 2 0.29 mmol/kg, N/T 1.45/6.32 mmol/kg, H 0.217 mmol/kg
[5] = oral gavage 5 min post-CN (4.8 mg/kg), prodrugs 0.29 mmol/kg
[6] = oral gavage 5 min pre-CN (4.8 mg/kg), prodrugs 0.29 mmol/kg
[7] = oral gavage 30 min pre-CN (4.8 mg/kg), 1.45 mmol/kg (Table 7)
[8] = oral gavage 60 min pre-CN (4.8 mg/kg), 1.45 mmol/kg

Substance	% S (percent survivors) [1] [%]	P.I. (protective index) [1]	Screen Righting Time (Ave ± SE) [1] [min]	Screen Righting Time (Ave ± SE) [2] [min]	% S (percent survivors) [3] [%]	P.I. (protective index: recovery time CN-treated / recovery time PD-treated) [3]	% S (percent survivors) [4] [%]	P.I. (protective index) [4]	Screen Righting Time (Ave ± SE) [4] [min]	Protective Indices compared with the combination of nitrite and thiosulfate	% S (percent survivors) [5] [%]	P.I. (protective index) [5]	Screen Righting Time (Ave ± SE) [5] [min]	% S (percent survivors) [6] [%]	P.I. (protective index) [6]	Screen Righting Time (Ave ± SE) [6] [min]	% S (percent survivors) [7] [%]	P.I. (protective index) [7]	Screen Righting Time (Ave ± SE) [7] [min]	antidotal activity when administered by the oral route	other results
2-Carbethoxy-2-mercaptomethyl-L-thiazolidine-4-carboxylic acid	100	1.4	42.8 ± 4.0	42.5 ± 3.4	100	1.6	100	1.3	54.0 ± 5.2	generally superior	100	1.6	37.5 ± 3.8	100	2.2	29.1 ± 4.4	100	2.1	33.5 ± 1.3	retain their antidotal activity	% S (percent survivors) [8]: 100%; P.I. (protective index) [8]: 2.0; Screen Righting Time (Ave ± SE) [8]: 35.3 ± 1.6 min
(E)-O,S-Diacetyl-2-hydroxyl-3-mercapto-2-propenoic acid	100	1.7	36.9 ± 4.1	8.7 ± 1.2	100	7.6	100	1.9	36.0 ± 1.6	generally superior	100	1.6	39.0 ± 7.4	100	3.2	20.4 ± 2.8	100	2.8	24.6 ± 3.9	retain their antidotal activity	
Ethyl-(E)-O,S-Diacetyl-2-hydroxyl-3-mercapto-2-propenate	100	2.3	27.0 ± 3.6	10.3 ± 1.3	100	6.4	100	2.1	33.3 ± 2.7	generally superior	100	3.4	17.8 ± 4.1	100	2.1	30.4 ± 4.2	100	5.4	13.0 ± 4.1	retain their antidotal activity	% S (percent survivors) [8]: 100%; P.I. (protective index) [8]: 2.1; Screen Righting Time (Ave ± SE) [8]: 33.9 ± 2.2 min
